Assays:
CHIKV = format: cell-based, Chikungunya virus; details: human fibroblasts (HFF-1), eight-dose response
[1] = system: RNA viruses (CHIKV, WNV, EV-D68, SARS-CoV-2); format: cell-based

Substance: IFN-β
- IC50, antiviral activity against CHIKV (CHIKV): 0.01969 µg/mL
- antiviral activity across all tested RNA viruses [1]: potent antiviral activity
